A negative result means that nothing was seen under these conditions. Tags and fusion partners may be left off the protein sequences shown. For some assays here: The exact form of at least one protein or probe is not confirmed.
Tests used:
RcsB-6His = molecular target: T1, RcsB-6His (UniProt E0SDZ3); test: EMSA; conditions: 10 mM Tris pH 7.5, 50 mM NaCl, 0.5 mM DTT, 1 mM MgCl2, 2.5% glycerol; 20 min at room temperature; 50 ng DNA in 20 ul; 6% acrylamide-TBE gel; recombinant …; protein details: 6xHis; label: none (ethidium bromide staining); probe letters rebuilt from the primers and the genome
T1 sequence (looked up, limits assumed): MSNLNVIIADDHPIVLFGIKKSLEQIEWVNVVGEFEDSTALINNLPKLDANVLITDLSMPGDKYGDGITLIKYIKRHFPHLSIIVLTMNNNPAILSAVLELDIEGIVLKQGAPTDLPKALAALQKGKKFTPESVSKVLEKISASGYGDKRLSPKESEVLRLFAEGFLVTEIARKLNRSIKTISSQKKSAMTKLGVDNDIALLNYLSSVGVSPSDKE

[1] = molecular target: T2, OmpR-6His (Dickeya dadantii 3937 (EC3937)) (UniProt E0SJT3); test: EMSA; conditions: 10 mM Tris pH 7.5, 50 mM NaCl, 0.5 mM DTT, 1 mM MgCl2, 2.5% glycerol; 20 min at room temperature; 50 ng DNA in 20 ul; 6% acrylamide-TBE gel; recombinant …; residues 1-239; protein details: His-tag (pET100/D-Topo); label: none (ethidium bromide staining); probe letters rebuilt from the primers and the genome
T2 sequence (looked up): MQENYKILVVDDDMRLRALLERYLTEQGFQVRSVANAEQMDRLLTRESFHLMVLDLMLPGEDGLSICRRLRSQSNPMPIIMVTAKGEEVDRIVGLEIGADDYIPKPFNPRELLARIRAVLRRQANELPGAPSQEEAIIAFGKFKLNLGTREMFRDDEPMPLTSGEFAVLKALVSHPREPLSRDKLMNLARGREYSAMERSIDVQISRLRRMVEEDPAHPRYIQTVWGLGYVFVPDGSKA

AACTGACCAGCATGGGATTCTTCGCCACCAGTACTTTTTTTGTGTTATCCGGCTTTCTGCTGACGCACGTTTATCTGCGTGACGGCCAGTTGCGGGAACCCGCCCGACACTTTTTAGCCAAGCGGTTGTTTAACCTCTACCCGATTCATATCATCGGTCTGGTGTCATCCATCGTCGTGGTCAGCCTGATGCACTGGCTGGCGATTCCGCCGGAAGGTCAGGTCGCTAGCGCCCGCTTCGTGATTTACGACAGCAACGACCCCAGCGTCGCGCCGGAAACATTACGCCACTACATGGATAACGCTGAACTGGCTTTTAACGGCTTGTTGCAATTACTGATGTTGCAGGCGTGGAACCCCTACTTTCTGACCTTCAACGCGCCGTTGTGGTCGGTGTCGACATTGTTCTTCTTCTATTTGCTGTTCCCACTGCTGGCGCCGCGGCTGTTGGGCAGTCGTCACCCGCGCCTGTGGTTGATGGCGATGTTCGTGCTGTATTTACTGCCGCCGATATGGGTGATCTGGCATCAATTATATGGCGCGCCATACACCGGCCTGCTACAACGCAACCCC (double strand) [opgC mid-coding control fragment]
binding result (RcsB-6His): no binding | binding result [1]: no binding
